Anti-infective test results gathered from many reports (values: NIAID ChemDB through PubChem).

Common to all: whole-cell or culture tests; organism: Mycobacterium tuberculosis

Inhibition is in % at the dose shown (toxicity tests: loss of growth or viability). ECn is the concentration giving n% inhibition of infection, replication or growth. Neighbouring rows are from separate reports. A number after MIC or MFC names an inhibition level or a share of isolates. Blank or dashed fields: not listed here. MIC bound: limit read from a one-dose screen.

SMILES | cells | read-out | strain or isolate | dose | read by | result
CCN(CC)CCNc1cc2c(c3c(=O)c4ccccc4sc13)CCCC2 | VERO | MIC | H37Rv | - | - | 12.5 µg/mL
Cc1ccc2c(=O)n(-c3cccc([N+](=O)[O-])c3)c(=O)oc2c1 | - | MIC | CNCTC MY331/88 | - | - | 4 µM
CCc1ccc(C(=O)N/N=C(\C)[C@]2(O)Cc3c(O)c4c(c(O)c3[C@H](O[C@H]3C[C@H](N)[C@H](O)[C@H](C)O3)C2)C(=O)c2c(OC)cccc2C4=O)cc1 | - | MIC bound | H37Rv | - | BACTEC | ≤12.5 µg/mL
Brc1cc[c]([Pb]([c]2ccccc2)([c]2ccccc2)[c]2ccccc2)cc1 | - | MIC | H37Rv | - | - | 50 µg/mL
Cc1c(/C=N/NC(=O)CCCC(=O)N/N=C/c2c(C)n(C)n(-c3ccccc3)c2=O)c(=O)n(-c2ccccc2)n1C | - | MIC | H37Rv | - | BACTEC | ≥12.5 µg/mL
COc1cc(OC)c2c(c1)OC(c1ccc(OC)c(I)c1)CC2=O | - | EC50 | - | - | - | >12.5 µg/mL
CCOC(=O)Nc1cc(N[C@@H](C)[C@H](O)c2ccccc2)c(N)c(N)n1 | VERO | MIC | H37Rv | - | - | 12.5 µg/mL
O=c1oc2ccc([N+](=O)[O-])cc2c(=O)n1-c1ccc(Br)cc1 | - | MIC | CNCTC MY331/88 | - | - | 31 µM
O=C1c2c(Cl)ccc(Cl)c2C(=O)c2c(Cl)ccc(Cl)c21 | - | MIC | H37Rv | - | - | >100 µg/mL
COc1ccc(NC(=O)/C(CC2=Nc3ccc([N+](=O)[O-])cc3NC2O)=N/NC(=O)C[N+](C)(C)C)c(OC)c1.[Cl-] | - | inhibition | H37Rv | 12.5 µg/mL | BACTEC | 20%
Nc1ncccc1/C=C/C(=O)c1cc2ccccc2cc1O | - | inhibition | H37Rv | 12.5 µg/mL | - | 0%
Cc1oc(C)c2c1C(=O)c1ccccc1C2=O | - | inhibition | H37Rv | 12.5 µg/mL | BACTEC | 19%
CC(CNC[C@@H]1CC[C@H]2C[C@@H]1C2(C)C)NCCC(c1ccccc1)c1ccccc1 | - | MIC | - | - | - | 12.5 µM
CCCCCc1ccc(Oc2ccc(C(=O)Nc3cc(=O)n(-c4ccccc4)[nH]3)cc2)cc1 | - | MIC | H37Rv | - | - | >100 µg/mL
CN[C@@H]1[C@H](O[C@H]2[C@H](O[C@H]3[C@H](O)[C@@H](O)[C@H](N=C(N)N)[C@@H](O)[C@@H]3N=C(N)N)O[C@@H](C)[C@]2(O)C=O)O[C@@H](CO)[C@H](O)[C@H]1O | - | MIC | A2B (amikacin-resistant) | - | - | 4 µg/mL
CCOC(=O)Nc1cc(NCC(C)CN(C)c2ccccc2)cc(NC(=O)OCC)n1 | - | inhibition | H37Rv | 12.5 µg/mL | - | 7%
Clc1c2c(c(Cl)c3c1=Nc1ncccc1O3)=Nc1ncccc1O2 | - | MIC bound | H37Rv | - | BACTEC | >12.5 µg/mL
c1ccc(CCCNCCNC23CC4CC(CC(C4)C2)C3)cc1 | - | MIC | - | - | - | 37.5 µM
CCCCC(CC)CN1CN(CC(CC)CCCC)CC(C)(NCCNC[C@@H](C)O)C1 | - | MIC | - | - | - | 25 µM
O=C(O)c1ccccc1OCCOCC[n+]1ccccc1 | - | MIC | H37Rv | - | - | >100 µg/mL
C1=C(CCNCCNCC2CCCO2)CCCC1 | - | MIC | - | - | - | 50 µM
CC[C@H]1OC(=O)[C@H](C)[C@@H](O[C@H]2C[C@@](C)(OC)[C@@H](O)[C@H](C)O2)[C@H](C)[C@@H](O[C@@H]2O[C@H](C)C[C@H](N(C)C)[C@H]2O)[C@](C)(O)C[C@@H](C)CN(C)[C@H](C)[C@@H](O)[C@]1(C)O | - | MBC | ATCC35838 | - | - | >8 µg/mL
CN1c2ccccc2CCC1CCc1ccc2c(c1)OCO2 | - | MIC | MT1 | - | - | >339 µg/mL
CC(=O)Oc1ccc([C@@H]2CC(=O)c3c(cc(OC(C)=O)c(-c4c(OC(C)=O)cc5c(c4OC(C)=O)C(=O)C[C@@H](c4ccc(OC(C)=O)cc4)O5)c3OC(C)=O)O2)cc1 | - | EC50 | H37Rv | - | - | >12.5 µg/mL
COc1cc(O)c2c(O)c3c(c4c2c1C1(C4)C(C)=CCCC1(C)C)C(O)C1(O)CC(=O)C(C(N)=O)=C(O)C1(O)C3=O | - | MIC | H37Rv | - | BACTEC | ≥12.8 µg/mL
NC(=O)c1cnccn1 | - | MIC | Isolate K10451 | - | - | >500 µg/mL
CC[C@H]1OC(=O)[C@H](C)[C@@H](O[C@H]2C[C@@](C)(OC)[C@@H](O)[C@H](C)O2)[C@H](C)[C@@H](O[C@@H]2O[C@H](C)C[C@H](N(C)C)[C@H]2O)[C@](C)(OC)C[C@@H](C)C(=O)[C@H](C)[C@@H](O)[C@]1(C)O | - | MBC90 | Drug-resistant | - | - | >8 µg/mL
C=CCNCCNC[C@]1(C)CCC[C@]2(C)c3ccc(C(C)C)cc3CC[C@@H]12 | - | MIC | - | - | - | 25 µM
NC(=O)COc1ccccc1 | - | MIC | H37Rv | - | - | >100 µg/mL
CCOC(=O)C(=O)N=Nc1nc2c(O)c3ccccc3c(O)c2s1 | - | inhibition | H37Rv | 12.5 µg/mL | BACTEC | 99%
CO[C@H]1/C=C/O[C@@]2(C)Oc3c(C)c(O)c4c(O)c(c(/C=N/N5CCN(C)CC5)c(O)c4c3C2=O)NC(=O)/C(C)=C\C=C\[C@H](C)[C@H](O)[C@@H](C)[C@@H](O)[C@@H](C)[C@H](OC(C)=O)[C@@H]1C | - | MIC | TN659 | - | - | 8 µg/mL
CC(CNCC(c1ccccc1)c1ccccc1)NC[C@@H]1CC[C@H]2C[C@@H]1C2(C)C | - | MIC | - | - | - | 12.5 µM
Cc1cc(NC(=O)C(=O)Cc2nc3ccccc3s2)ccc1Cl | - | inhibition | H37Rv | 12.5 µg/mL | BACTEC | 0%
CO[C@H]1/C=C/O[C@@]2(C)Oc3c(C)c(O)c4c(O)c(c5c(c4c3C2=O)NC2(CCN(CC(C)C)CC2)N=5)=NC(=O)/C(C)=C\C=C\[C@H](C)[C@H](O)[C@@H](C)[C@@H](O)[C@@H](C)[C@H](OC(C)=O)[C@@H]1C | - | MIC | H37Rv | - | - | 0.063 µg/mL
CCOC(=O)Nc1cc(N(C)C(c2ccccc2)c2ccccc2)c([N+](=O)[O-])c(N)n1 | - | inhibition | H37Rv | 12.5 µg/mL | - | 0%
Nc1nc2ncn(O)c2c(=O)[nH]1 | - | MIC | H37Rv | - | BACTEC | ≥12.5 µg/mL
CCOc1ccccc1CNCCNCCc1ccc(Cl)cc1Cl | - | MIC | - | - | - | 25 µM
CC(CNCC12CC3CC(CC(C3)C1)C2)NC[C@@H]1CC[C@H]2C[C@@H]1C2(C)C | - | MIC | - | - | - | 50 µM
CC(NCCNCC(c1ccccc1)c1ccccc1)c1cccc2ccccc12 | - | MIC | - | - | - | 6.25 µM
Oc1ccc2ccccc2c1C1=NNc2n[nH]c(=S)n2N1 | - | MIC bound | H37Rv | - | BACTEC | >12.5 µg/mL
CC1CCC(NCCNC[C@@H]2CC[C@H]3C[C@@H]2C3(C)C)CC1 | - | MIC | - | - | - | 12.5 µM
O=C(/C=C/c1ccccc1)c1cc(Br)ccc1O | - | inhibition | H37Rv | 12.5 µg/mL | - | 68%
CCOC(=O)C(CC)(C(C)=O)c1nc2ccccc2o1 | - | MIC | H37Rv | - | - | >100 µg/mL
CO[C@H]1/C=C/O[C@@]2(C)Oc3c(C)c(O)c4c(O)c(c5c(c4c3C2=O)NC2(CCN(CC(C)C)CC2)N=5)=NC(=O)/C(C)=C\C=C\[C@H](C)[C@H](O)[C@@H](C)[C@@H](O)[C@@H](C)[C@H](OC(C)=O)[C@@H]1C | - | MIC | Strain 163 (D516Y) | - | - | 0.25 µg/mL
C[C@@H]1CN(c2c(F)c(N)c3c(=O)c(C(=O)O)cn(C4CC4)c3c2F)C[C@H](C)N1 | - | MBC | ATCC 35823 | - | - | 0.06 µg/mL
Cc1cc(N(C)C)ccc1C=O | - | MIC | H37Rv | - | - | 12.5 µg/mL
CCOC(=O)C1C(=O)C(=O)N(Cc2ccccc2)C1C(=O)OCC | - | inhibition | H37Rv | 6.25 µg/mL | resazurin | 2%
O=C(/C=C/c1ccccc1)c1ccc(Cl)cc1 | - | MIC | H37Rv | - | - | 50 µg/mL
COc1ccc2c(O)c(Oc3ccccc3)c(=O)oc2c1 | - | inhibition | H37Rv | 12.5 µg/mL | BACTEC | 16%
COc1ccccc1CCNCCNC1CCCc2ccccc21 | - | MIC | - | - | - | 50 µM
NC(=O)c1nnn(-c2ccccc2)c1N | - | MIC bound | H37Rv | - | BACTEC | >12.5 µg/mL
O=c1[nH]c(=O)n(-c2ccccc2)[nH]1 | - | MIC | H37Rv | - | - | >100 µg/mL
Cn1c2c(c3ccccc31)CCN(CCCCN1CCN(c3ccccc3)CC1)C2=O | - | inhibition | H37Rv | 6.25 µg/mL | resazurin | 41%
Cc1c(-c2c(C)n(C)n(-c3ccccc3)c2=O)c(=O)n(-c2ccccc2)n1C | - | MIC | H37Rv | - | - | >100 µg/mL
C[C@H]1COc2c(N3CCN(C)CC3)c(F)cc3c(=O)c(C(=O)O)cn1c23 | - | MBC | H37Rv | - | - | 0.25 µg/mL
CC(C)c1ccc2c(c1)CC[C@H]1[C@](C)(CNCCNCCc3cccc(F)c3)CCC[C@]21C | - | MIC | - | - | - | 12.5 µM
Cl.Nc1ccc2c(c1)S(=O)(=O)c1ccccc1O2 | - | MIC | H37Rv | - | - | 100 µg/mL
COC(=O)Nc1cc(Cl)cc(NC(=O)OC)n1 | - | EC50 | H37Rv | - | - | >12.5 µg/mL
S=C(Nc1nc2ccccc2s1)SSC(=S)Nc1nc2ccccc2s1 | - | MIC | H37Rv | - | BACTEC | 8 µg/mL
Nc1ccc(O)c(NC(=O)COc2ccccc2)c1 | - | MIC | H37Rv | - | - | 100 µg/mL
CC(CNCC(c1ccccc1)c1ccccc1)NCC12CC3CC(CC(C3)C1)C2 | - | MIC | - | - | - | 25 µM
O=C(O)c1cc2ccccc2cc1O | - | MIC | H37Rv | - | - | 25 µg/mL
COc1ccc(OC)c(CCNCCNCCCCCO)c1 | - | MIC | - | - | - | 12.5 µM
CO[C@H]1/C=C/O[C@@]2(C)Oc3c(C)c(O)c4c(=O)c(c5oc6cc(N7CCN(CC(C)C)CC7)cc(=O)c6nc5c4c3=C2O)NC(=O)/C(C)=C\C=C\[C@H](C)[C@H](O)[C@@H](C)[C@@H](O)[C@@H](C)[C@H](OC(C)=O)[C@@H]1C | - | MBC | 2624 (rifampin-sensitive) | - | - | 0.003 µg/mL
CCCCCCCN | - | MIC | H37Rv | - | - | 800 µg/mL
CC(C)(C)OC(=O)CC(NC(=O)OC(C)(C)C)C(=O)NC(Cc1ccccc1)C(N)=O | - | inhibition | H37Rv | 12.5 µg/mL | BACTEC | 0%
NC1CCN(c2c(F)cc3c(=O)c(C(=O)O)cn(C4CC4)c3c2Cl)C1 | - | MIC | H37Rv | - | - | 0.06 µg/mL
CCN(CC)C(=O)c1cccnc1 | - | MIC | H37Rv | - | - | >100 µg/mL
NC(N)=N/N=C(\N=Nc1ccccc1)c1cccc2cccnc12 | - | inhibition | H37Rv | 12.5 µg/mL | BACTEC | 27%
COc1ccc(CCNCCNCCCN2CCCC2=O)cc1 | - | MIC | - | - | - | 25 µM
CCOC(=O)Nc1cc(N)c([N+](=O)[O-])c(Cl)n1 | - | EC50 | H37Rv | - | - | <12.5 µg/mL
Cc1ccc2c(=O)n(-c3ccc(C#N)cc3)c(=O)oc2c1 | - | MIC | CNCTC MY331/88 | - | - | 16 µM
CC(C)CCCC(C)C1CCC2C3CCC4N(C)C(C)CCC4(C)C3CCC12C | - | MIC bound | H37Rv | - | BACTEC | >12.5 µg/mL
Cc1ccc(OCC(=O)O)cc1 | - | MIC | H37Rv | - | - | >100 µg/mL
CCCCCc1cc(OC)c2ccccc2n1 | - | MIC | MT9 | - | - | 12.5 µg/mL
O=C1CN(CCl)C(=O)CN1CCl | - | MIC bound | H37Rv | - | BACTEC | >12.5 µg/mL
C/C=C/C(N)=O | - | MIC | H37Rv | - | - | >100 µg/mL
CC1(C)CC2CC(C)(CN2CCNCC23CC4CC(CC(C4)C2)C3)C1 | - | MIC | - | - | - | 9.4 µM
O/N=C(\c1ccccc1)C1(c2ccccc2)/C(=N/O)c2cc(-c3ccccc3)c(-c3ccccc3)cc21 | - | MIC | H37Rv | - | - | >100 µg/mL
CC1CC(C)CN(CCNCCC(c2ccccc2)c2ccccc2)C1 | - | MIC | - | - | - | 25 µM
CN(C)C(=N)N=C(N)N | - | MIC | H37Rv | - | - | >100 µg/mL
Cc1ccc2oc(=O)n(-c3ccc(C(F)(F)F)cc3)c(=O)c2c1 | - | MIC | CNCTC MY331/88 | - | - | 4 µM

9 of the rows above, restated:

SMILES,cells,read-out,strain or isolate,dose,read by,result
S=C(Nc1nc2ccccc2s1)SSC(=S)Nc1nc2ccccc2s1,-,MIC,H37Rv,-,BACTEC,8 µg/mL
CO[C@H]1/C=C/O[C@@]2(C)Oc3c(C)c(O)c4c(O)c(c5c(c4c3C2=O)NC2(CCN(CC(C)C)CC2)N=5)=NC(=O)/C(C)=C\C=C\[C@H](C)[C@H](O)[C@@H](C)[C@@H](O)[C@@H](C)[C@H](OC(C)=O)[C@@H]1C,-,MIC,H37Rv,-,-,0.063 µg/mL
Cc1cc(N(C)C)ccc1C=O,-,MIC,H37Rv,-,-,12.5 µg/mL
Cc1c(-c2c(C)n(C)n(-c3ccccc3)c2=O)c(=O)n(-c2ccccc2)n1C,-,MIC,H37Rv,-,-,>100 µg/mL
Clc1c2c(c(Cl)c3c1=Nc1ncccc1O3)=Nc1ncccc1O2,-,MIC bound,H37Rv,-,BACTEC,>12.5 µg/mL
CCN(CC)CCNc1cc2c(c3c(=O)c4ccccc4sc13)CCCC2,VERO,MIC,H37Rv,-,-,12.5 µg/mL
C1=C(CCNCCNCC2CCCO2)CCCC1,-,MIC,-,-,-,50 µM
COc1ccc2c(O)c(Oc3ccccc3)c(=O)oc2c1,-,inhibition,H37Rv,12.5 µg/mL,BACTEC,16%
C/C=C/C(N)=O,-,MIC,H37Rv,-,-,>100 µg/mL